Anti-infective test results gathered from many reports (values: NIAID ChemDB through PubChem).

Common to all: cytotoxicity tests; cell line: OM-10.1; read-out: CC50

Conditions beyond the fields shown may differ between rows.

SMILES	method	result
COc1cc(OC)c2c(=O)c3ccccc3n(C)c2c1		8 µg/mL
Cn1c2ccccc2c(=O)c2ccccc21		16 µg/mL
COC(=O)C1=C2Nc3ccccc3[C@@]23CCN2C[C@]4(C[C@@H]5C[C@]67CCO[C@H]6CCC6NC[C@@]8(c9cccc(OC)c9N(C4)[C@@H]58)[C@@H]67)[C@@H]4OCCC4(C1)[C@H]23	absorbance	>10 µM
COc1ccc2[nH]c3ccccc3c(=O)c2c1OC		32 µg/mL
Cn1c2ccccc2c(=O)c2c(O)cccc21		18 µg/mL
COc1cc(O)c2c(=O)c3ccccc3n(C)c2c1		0.8 µg/mL
CCn1cc(C(=O)O)c(=O)c2cc(F)c(N3CCN(c4ccccc4OC)CC3)c(OC(F)F)c21		>4 µM
Cn1cc(C(=O)O)c(=O)c2cc(F)c(N3CC=C(c4ccccc4)CC3)c(C(F)(F)F)c21		>1 µM
N#Cc1c(C2CCNCC2)cc(-c2c(O)cccc2OCC2CC2)nc1N	WST	15 µM
Cn1c2ccccc2c(=O)c2c(O)ccc(O)c21		0.36 µg/mL
COc1cc(OC)c2c(=O)c3ccccc3n(C)c2c1		8 µg/mL
O=S(=O)(Cc1c(Cl)c(Cl)c(Cl)c(Cl)c1Cl)c1cccc[n+]1[O-]	MTT	5 µg/mL
COc1cccc2c1c(=O)c1ccccc1n2C		13 µg/mL
COc1ccc2[nH]c3ccccc3c(=O)c2c1OC		32 µg/mL
Cn1cc(C(=O)O)c(=O)c2cc(F)c(N3CC=C(c4ccccc4)CC3)c(C(F)(F)F)c21		1.53 µM
COc1ccc2[nH]c(=O)c(CN(Cc3cccnc3)S(=O)(=O)c3cccc4nsnc34)cc2c1	MTT	>10 µM

For reference, 2 entries again:

| SMILES | method | result |
|---|---|---|
| Cn1cc(C(=O)O)c(=O)c2cc(F)c(N3CC=C(c4ccccc4)CC3)c(C(F)(F)F)c21 |  | 1.53 µM |
| COc1ccc2[nH]c3ccccc3c(=O)c2c1OC |  | 32 µg/mL |

An empty or dashed field is not shown. CCn is the concentration with n% toxicity to the cells.